PubChem BioAssay AID1259414, Drosophila RNAi Screening Center – 2018
Test: 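Fly genes that alter Wolbachia amount inside host cells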 (primary screen). System: Drosophila JW18 cells infected with Wolbachia. Reagents: long dsRNA against Drosophila genes, 0.25 µg dsRNA per well of a 384-well plate. Duration: 5 days. Conditions: cells persistently infected with Wolbachia before knock-down; no added drug. Read-out: 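Automated imaging of bacterial rRNA staining divided by host cell count, reported as plate-normalised robust z-score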. Reading the numbers: Wolbachia per cell robust z: higher = more Wolbachia per host cell than the plate typical. Rule for the call: 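Active if absolute robust z reaches 1.5 in two or more of three replicates, leaving out multi- or no-target dsRNAs, genes unexpressed in JW18 and A1 wells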.
The deposit covers about 24,000 reagents; below is an unselected part of those with a known target gene and a result. Of all reagents, about 1,210 (5%) were called active. 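Inactive calls also include excluded dsRNAs with several or no targets, genes unexpressed in JW18, and well A1, regardless of score.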 Unmarked entries are inactive. Names joined by + are all predicted targets of the reagent.

predicted target,amplicon,"Wolbachia per cell robust z, rep 1","Wolbachia per cell robust z, rep 2","Wolbachia per cell robust z, rep 3"
CG9673,DRSC20202,-1.69,-0.663,-0.317
Su(var)3-7,DRSC16872,-3.4 (active),-3.66,-1.06
CR43087 + CR43086 + CG34002,DRSC11953,-1.04,0.14,-0.415
CG31496,DRSC12547,-2.01,0.355,0.799
CG31496,DRSC27899,-0.258,1.55,1.25
PGRP-SB1,DRSC11090,-0.73,-1.17,0.912
CG33287,DRSC22929,-0.361,-0.907,-1.53
Npc1a,DRSC03378,-0.257,-3.27,0.337
Jhedup,DRSC07173,0.305,0.851,-2.02
Gr43a,DRSC06658,1.33,0.524,1.05
CG43777 + CG43776 + CG43775,DRSC04206,0.233,0.545,0.163
hale,DRSC10882,0.788,0.883,0.635
hale,DRSC28772,-2.83,0.517,1.2
CG32588,DRSC22285,-1.37,-0.908,-0.255
CG17684,DRSC37825,-2.17,-0.251,0.614
CG32147,DRSC09346,0.638,-0.247,-0.733
CG32147,DRSC24225,0.696,-0.0178,0.967
robl22E,DRSC00289,0.559,0.589,0.0916
Phae1,DRSC02554,0.431,-1.19,0.118
Trxr1,DRSC18668,-0.172,0.352,-1.68
Trxr1,DRSC22293,0.915,1.34,-0.559
Trxr1,DRSC25749,-3.74,1.62,0.581
Trxr1,DRSC40772,-0.213,-0.514,0.728
CG17186,DRSC15180,-0.483,0.932,-6.16
CG17186,DRSC27612,-0.994,-1.85,0.653
CG2931,DRSC12324,-0.755,-1.56,-1.3
PyK,DRSC16806,-1.33,-0.15,-0.186
PyK,DRSC27033,-0.0171,-0.169,0.923

Quoted from the listing, 4 entries:
predicted target,amplicon,"Wolbachia per cell robust z, rep 1","Wolbachia per cell robust z, rep 2","Wolbachia per cell robust z, rep 3"
CG17186,DRSC27612,-0.994,-1.85,0.653
CG2931,DRSC12324,-0.755,-1.56,-1.3
PyK,DRSC16806,-1.33,-0.15,-0.186
PyK,DRSC27033,-0.0171,-0.169,0.923
